Experimental findings from the supplement of paper PMC9262897, “Low-cost anti-mycobacterial drug discovery using engineered E. coli” (Nature Communications, 2022) are described below.

± gives the standard deviation of the averaged measurements. Only a part is listed here, and it is no random draw.

For this test, the system named is E. coli TESEC Alr+ wild-type control. Put plainly: growth (OD600 after 10 h); higher = more growth (less inhibition). Particulars: compound 0.1 mM; raw OD600 reference: median of DMSO wells 0.241, cell-free background 0.041. On the procedure: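 TESEC Mtb Alr E. coli, or the Alr+ wild-type control, in 384-well plates with Prestwick library compounds at 0.1 mM and 1% DMSO, across arabinose induction levels of 1E3 to 1E7 nM. Growth is read as OD600 after 10 h at 37 °C in triplicate biological replicates.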
Compound `COc1cc(Br)c(C[N+]2(CCOCCC3CCC4CC3C4(C)C)CCOCC2)cc1OC` (stereo unspecified) [Pinaverium bromide] had a growth of 0.03947 ± 0.00038.
